The exact form of at least one protein or probe is not confirmed. Results from cells or extracts need not show a direct contact. For part of these data: Protein sequences can lack the tags named with them.

Holding throughout (assay): EMSA supershift
Background: A gel shift assay detects complexes by their altered migration in electrophoresis.

The subject of one data set is NF-kB p65 + NF-kB p50. The conditions noted are these: OMV-treated BM-derived DC nuclear extract, 1 h, anti-p65 and anti-p50 shift; EMSA: 5 ug nuclear extract, 30 min, room temperature, Promega protocol, 5% polyacrylamide gel; salt and pH not given; protein in an extract; label: 32P (gamma-32P).
The next data set has as its system c-Jun + c-Fos. The conditions noted are these: OMV-treated BM-derived DC nuclear extract, 1 h, signal lost with anti-c-Jun and anti-c-Fos; EMSA: 5 ug nuclear extract, 30 min, room temperature, Promega protocol, 5% polyacrylamide gel; salt and pH not given; protein in an extract; label: 32P (gamma-32P).
Another data set deals with T1, Nrf2 (Mus musculus) (UniProt Q60795).
T1 sequence (looked up, limits assumed): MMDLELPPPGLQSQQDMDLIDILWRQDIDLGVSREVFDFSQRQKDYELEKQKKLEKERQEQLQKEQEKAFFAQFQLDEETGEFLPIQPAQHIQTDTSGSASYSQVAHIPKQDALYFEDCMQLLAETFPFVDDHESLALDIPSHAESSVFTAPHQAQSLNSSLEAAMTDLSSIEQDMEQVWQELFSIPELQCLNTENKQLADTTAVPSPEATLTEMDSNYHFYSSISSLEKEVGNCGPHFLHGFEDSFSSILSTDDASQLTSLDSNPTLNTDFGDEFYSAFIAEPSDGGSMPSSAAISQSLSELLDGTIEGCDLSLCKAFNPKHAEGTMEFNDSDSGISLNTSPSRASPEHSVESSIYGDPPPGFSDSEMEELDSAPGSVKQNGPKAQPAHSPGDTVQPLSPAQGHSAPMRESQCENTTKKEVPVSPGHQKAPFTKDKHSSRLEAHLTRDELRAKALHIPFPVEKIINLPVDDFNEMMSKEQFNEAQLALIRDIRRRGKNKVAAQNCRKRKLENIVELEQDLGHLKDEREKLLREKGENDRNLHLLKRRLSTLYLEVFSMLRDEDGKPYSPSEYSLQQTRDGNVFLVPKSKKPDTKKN
The conditions noted are these: OMV-treated BM-derived DC nuclear extract, 6 h, signal lost with anti-Nrf2, suppressed by excess (100-fold) cold probe; EMSA: 5 ug nuclear extract, 30 min, room temperature, Promega protocol, 5% polyacrylamide gel; salt and pH not given; protein in an extract; label: 32P (gamma-32P), unlabeled as cold competitor.

For “AGTTGAGGGGACTTTCCCAGGC (double strand) [NF-kB probe]”, the binding result in the data set on NF-kB p65 + NF-kB p50 is “binds”.

For the sequence “CGCTTGATGACTCAGCCGGAA (double strand) [AP-1 probe]”, the binding result in the data set on c-Jun + c-Fos is given as “binds”.

For “TGGGGAACCTGTGCTGAGTCACTGGAG (double strand) [Nrf2 probe]”, the binding result with Nrf2 (Mus musculus) was “binds”.

For the origin of these results see paper PMC4962631.
